This assay deals with SARS-CoV-2 PsV. The assay is classed as cell-based. To be noted: n = 3.

As for “ACE2: recombinant human angiotensin-converting enzyme 2, soluble, R&D Systems”, the “inhibition of SARS-CoV-2 PsV infection” value is listed as approximately 66%.

Values taken from publication PMC9743467 (Matter, 2022).
